Three compounds from patent publication US20100285095A1 (priority 2009, published 2010) can be followed below.

This assay has as its system S. aureus MN 8. In kind it is cell-based, Staphylococcus aureus.

For the compound `O=C([O-])C(O)CO.O=C([O-])C(O)CO.[Ca+2]` [calcium D-glycerate], the “Change in S. aureus cfu/mL vs. control” value is <2 log.

On to `O=C(O)C(O)CO` (stereo not drawn) [calcium glycerate], for which the “Change in S. aureus cfu/mL vs. control” value is given as <2 log.

For calcium gluconate, the “Change in S. aureus cfu/mL vs. control” value is recorded as <2 log.
